The values are deposited in ChEMBL (CHEMBL3988442, “University of Dundee, Small-Polar-MMV Screening Library” (2021)).

A: 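Growth of Mycobacterium tuberculosis over 3 days (7H9 medium with glucose and tyloxapol); the read-out is not stated. Compounds at 500 µM. Higher reads as more growth inhibition (inferred: compounds with an IC50 in retests scored well above the rest). About 18,000 compounds were tested under these conditions; 7.9% (about 1,400) showed 50% or more at least once.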
B: 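Phenotypic screen: M. tuberculosis growth, cholesterol and DPPC medium, 4 days; the read-out is not stated. Concentration: 500 µM. Direction is inferred from retests: higher values go with more growth inhibition. About 18,000 compounds were tested under these conditions; 5% (about 900) showed 50% or more at least once.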

Results are given as percent effect. The controls that fix the scale are not given in the record; negative values are as filed. This is part of a subset picked to be rich in strong results. A dash means the value is not listed here; it may have been measured.

Compound	A	B
CN(C)[C@@H]1CN(C(=O)c2ccccc2)C[C@H]1CO	-6.155	-
CC(C)NC(=O)Cn1cnc2c1c(=O)n(C)c(=O)n2C	-	-0.8616
NS(=O)(=O)c1csc2ccccc12	31.23	-
c1cn(C2CCCNCC2)nn1 (stereo not drawn)	-5.606	-11.87
Cn1ccnc1CCNC(=O)CCN1CCCCC1=O	-4.319	-
O=C(CCc1ccco1)Nc1nnc[nH]1	-	-9.774
Cc1ccccc1Oc1ccnc(CN)c1	-	-14.5
Nc1ccc(C(F)(F)F)nn1	4.933	6.979
CCC(CO)(CO)NCC(O)COCc1ccco1 (stereo not drawn)	19.36	-
COc1cc(CNC(C)C)cc(Br)c1OCC(N)=O	-	1.027
CCS(=O)(=O)N(C)CCCNc1cccc(C)n1	35.35	48.5
CC(CN1CCCC1=O)NCc1ccc(C#N)cc1 (stereo not drawn)	7.637	-
CCc1ccccc1OCCN1CCOCC(O)C1 (stereo not drawn)	18.55	-
CCC(N)C(=O)Nc1ccc2c(c1)CCC2 (stereo not drawn)	71.83	60.26
CC(=O)NCCNC(=O)CN(CC1CCOC1)C1CC1 (stereo not drawn)	-2.606	-
CNc1cccc(S(C)(=O)=O)c1	6.956	-
Cc1nc2c(o1)CCCC2O (stereo not drawn)	-	-7.876
CN(C)c1nnc(SCCCC#N)s1	-	-1.797
CS(=O)(=O)NCC(=O)N1CCCC1C1CCCC1 (stereo not drawn)	30.43	-
Cn1ccc(C(=O)N2CCc3ccccc32)cc1=O	22.66	-
COCC(=O)N1CCC(Nc2cncc(Br)c2)CC1	-8.039	-
NC(=O)C1CCN(CC(=O)NCC(F)(F)F)CC1	-	0.1968
Cc1cc(N)n(CC(=O)N2CCN(C)C(=O)C2C)n1 (stereo not drawn)	-7.89	-
CC(C)n1cc(C(=O)N2CC(c3ccccn3)C2)cn1	40.25	19.81
O=C(CN1CCNCC1)c1ccccc1Cl	-	14.01
CN(C)CCNC(=O)c1ccc(Cl)cc1	51.05	-
CCC[C@H]1CN(C(=O)c2cccc(COC)n2)C[C@@H]1N	-	-3.804
CS(=O)(=O)C1CSCCN1C(=O)c1cccc(Cl)c1 (stereo not drawn)	-9.263	-
COc1ccc(NC(=O)CC2COCCN2)c(C)c1 (stereo not drawn)	-23.56	-
OC1CCC(Nc2ncccc2Cl)CC1 (stereo not drawn)	38.37	-
CSCc1nc(CNCC2(O)CCCNC2)cs1 (stereo not drawn)	9.915	-
Cc1cc(CN2CCn3ccnc3C2)no1	-	-17.46
Brc1cncc(C2CNCCO2)c1 (stereo not drawn)	35.81	-
NC1CCN(C(=O)c2cnccn2)CC1	0.2208	-
CC(=O)N1CCC(CN(C)Cc2ccc(Br)o2)C1 (stereo not drawn)	50.41	-
COc1ccc2cc(S(N)(=O)=O)ccc2c1	23.31	-
CC(CN)c1ccc(S(C)(=O)=O)cc1 (stereo not drawn)	3.735	-
COCCNC(=O)NCCN1CCc2sccc2C1	3.867	-
C[C@@]1(O)CCN(C(=O)CN)C[C@@H]1Cc1ccccc1	55.82	62.35
CCc1ccc(S(=O)(=O)N(C)CC(N)=O)s1	56.93	-
O=C(c1cnc[nH]1)N1CCC(O)(CN2CCCC2)CC1	-6.682	-
CC1(C)CC(CCN)CCO1 (stereo not drawn)	12.32	-
CC(C)NC(=O)C(C)S(=O)(=O)Cc1ccccc1 (stereo not drawn)	22.85	-

Once more, the final 5:

| Compound | A | B |
|---|---|---|
| `C[C@@]1(O)CCN(C(=O)CN)C[C@@H]1Cc1ccccc1` | 55.82 | 62.35 |
| `CCc1ccc(S(=O)(=O)N(C)CC(N)=O)s1` | 56.93 | - |
| `O=C(c1cnc[nH]1)N1CCC(O)(CN2CCCC2)CC1` | -6.682 | - |
| `CC1(C)CC(CCN)CCO1` (stereo not drawn) | 12.32 | - |
| `CC(C)NC(=O)C(C)S(=O)(=O)Cc1ccccc1` (stereo not drawn) | 22.85 | - |